Results of unrelated studies side by side (data: NIAID ChemDB).

Common to all: tests in culture; organism: Parainfluenza virus; measure: EC50

a–b is a range or a potency band.

smiles | strain | cells | read by | value
NC1=CC(c2ccccc2)=Nn2c(nnc2-c2cn(-c3ccccc3)nc2-c2ccccc2)S1 | TYPE 3 | VERO | cytopathic effect | >16 µg/mL
C=C(N=CC)c1nc(-c2ccc(OC)cc2)n(C2O[C@H](CO)[C@@H](O)[C@H](O)[C@H]2O)n1 | TYPE 3 | VERO | cytopathic effect | >200 µg/mL
NS(=O)c1ncnc2c1ncn2[C@H]1C[C@H](O)[C@@H](CO)O1 | TYPE 3 | - | cytopathic effect | >320 µM
Nn1c(SCC(=O)O)nnc1-c1cn(-c2ccccc2)nc1-c1ccccc1 | TYPE 3 | VERO | cytopathic effect | >80 µg/mL
CC=NC(=N)c1nc(-c2ccccc2)n(Cc2ccccc2)n1 | TYPE 3 | VERO | cytopathic effect | >10 µg/mL
CC(=O)O[C@H]1[C@@H](Oc2c(C)c(O)c3c(=O)cc(C)oc3c2C)O[C@H](CO)[C@@H](O)[C@@H]1O | TYPE 3 | HEP-2 | cytopathic effect | 20.8 µg/mL
CC1=Nn2c(nnc2-c2cn(-c3ccccc3)nc2-c2ccccc2)SC1 | TYPE 3 | VERO | cytopathic effect | >16 µg/mL
N=C(N)c1ncn([C@@H]2O[C@H](CO)[C@@H](O)[C@H]2O)n1 | - | - | - | 1–100 µM
O=c1ccn([C@H]2C[C@@H](O)[C@H](CO)O2)c(=O)[nH]1 | TYPE 3 | VERO B | cytopathic effect | >100 µM
O=C1CSc2nnc(-c3cn(-c4ccccc4)nc3-c3ccccc3)n2N1 | TYPE 3 | VERO | cytopathic effect | >16 µg/mL
NSc1ncnc2c1ncn2[C@H]1C[C@H](O)[C@@H](CO)O1 | TYPE 3 | - | cytopathic effect | >320 µM
CC(C)CS[C@H]1C[C@@H](n2cnc3c(N)ncnc32)[C@H](O)[C@@H]1O | TYPE 3 | HeLa | cytopathic effect | >80 µg/mL
NC(=O)CCN(CCC(N)=O)S(=O)(=O)c1cccc(Nc2nc(Nc3cccc(S(=O)(=O)N(CCC(N)=O)CCC(N)=O)c3)nc(Nc3ccc(-c4ccc(Nc5nc(Nc6cccc(S(=O)(=O)N(CCC(N)=O)CCC(N)=O)c6)nc(Nc6cccc(S(=O)(=O)N(CCC(N)=O)CCC(N)=O)c6)n5)cc4S(=O)(=O)O)c(S(=O)(=O)O)c3)n2)c1 | TYPE 3 | HEP-2 | cytopathic effect | >375 µg/mL
[N-]=[N+]=N[C@H]1[C@@H](F)[C@H](n2cnc3c(N)ncnc32)O[C@@H]1CO | TYPE 3 | VERO B | cytopathic effect | >200 µg/mL
NS(=O)c1ncnc2c1ncn2[C@@H]1O[C@H](CO)[C@@H](O)[C@@H]1O | TYPE 3 | - | cytopathic effect | >320 µM
CC=NC(=N)c1nc(-c2ccc(OC)cc2)n(Cc2ccccc2)n1 | TYPE 3 | VERO | cytopathic effect | >10 µg/mL
CC(C)Oc1ccccc1CNC(=O)c1ccc2cnccc2n1 | 14702 (TYPE 3) | MA-104 | cytopathic effect | 28.1 µM
CC=NC(=N)c1nc(-c2cccc(C)c2)n(COCCO)n1 | TYPE 3 | VERO | cytopathic effect | 70 µg/mL
CC(C)Oc1ccccc1NC(=O)Nc1ccc2cnccc2n1 | - | - | plaque count | >30 µg/mL
Nc1ncnc2c1ncn2[C@@H]1O[C@@H](CO)[C@H](O)[C@H]1O | TYPE 3 | VERO B | cytopathic effect | >1000 µM
CC=NC(=N)c1nc(-c2ccccc2)n(COCCO)n1 | TYPE 3 | VERO | cytopathic effect | 70 µg/mL

Lines come from different laboratories, so protocols vary. An empty or dashed field is not shown. ECn: concentration that inhibits the pathogen or its effect by n%.